Series [1] in a line: Solubility in simulated intestinal fluids (FaSSIF/FeSSIF). As to conditions: 25° C.
The conditions of series [2]: 1.0% DMSO, 24-hour incubation at ambient temperature, maximum theoretical 100 μM.

As to “((di-tert-butoxyphosphoryl)oxy)methyl (2-(3-(4-chloro-7-(2-((S)-1-(2-((3bS,4aR)-5,5-difluoro-3-(trifluoromethyl)-3b,4,4a,5-tetrahydro-1H-cyclopropa[3,4]cyclopenta[1,2-c]pyrazol-1-yl)acetamido)-2-(3,5-difluorophenyl)ethyl)-6-(3-methyl-3-(methylsulfonyl)but-1-yn-1-yl)pyridin-3-yl)-1-(2,2,2-trifluoroethyl)-1H-indazol-3-yl)-1-methyl-3-(methylsulfonyl)ureido)ethyl)carbamate”, the FaSSIF solubility in series [1] (fasted state simulated intestinal fluid, first value of the cell FaSSIF/FeSSIF) was 490 µg/mL. Moreover, the FeSSIF solubility in series [1] (fed state simulated intestinal fluid, second value of the cell FaSSIF/FeSSIF) was 660 µg/mL. In addition, in series [2] (0.1N HCl, first value of the cell), the “pH 2 solubility” value is reported as 1 μM. Besides, the “pH 7 solubility” value in series [2] (1×PBS buffer (pH 7.4), second value of the cell) was determined as 83 μM.

Source of the values: patent US12404262B2 (priority 2021, dated 2025).
